End groups of sequences in plain letters are not given here.
Experiment: peptide made by a vendor (Fmoc solid-phase peptide synthesis)
Conditions: whole synthesis
In the case of AGMLLLSLLL, the outcome is reported as “Four peptides could not be purified to specifications”. With IPMTIAGLMF the outcome was “Four peptides could not be purified to specifications”. For MPAILIALLV, the outcome was “Four peptides could not be purified to specifications”. In the case of SVNMTSQVLL, the outcome is reported as “Four peptides could not be purified to specifications”.

— patent publication US20050048073A1 (priority 2001, published 2005)
